Data on one molecule can be found in patent US12486489B2, “Culture medium for testing drug resistance of H.pylori as well as preparation method and use thereof” (priority 2022, dated 2025).

The test concerns H. pylori. Kind of test: Verification of resistance breakpoint: growth of laboratory strains on Columbia solid culture medium with added antibiotics, 72 hours. In kind it is cell-based, Helicobacter pylori. Particulars: conclusion of breakpoint verification. As to the method:
The plates are cooled and inverted for approximately 10 mL/piece, marked properly for the subsequent use.
(2) Preparation of bacterial solution: H. pylori grown in logarithmic phase on a solid plate is taken to prepare a bacterial suspension by using BHI. The concentration OD600 is adjusted to 0.3 (1×10^8 CFU/mL), diluted 10 times for the subsequent use.
(3) Inoculation of bacterial solution: 10 μL of bacterial solution is taken and added to Columbia culture medium and the results are determined after cultivating for 72 hours.
(4) Result determination: the minimum drug concentration for no growth of bacteria on the plate is the minimum inhibitory concentration of the bacteria against the drug.

For `CC1(C)S[C@@H]2[C@H](NC(=O)[C@H](N)c3ccc(O)cc3)C(=O)N2[C@H]1C(=O)O` [Amoxicillin, amoxicillin], the “optimal concentration for adding antibiotics” value turned out to be 0.0625 µg/mL.
